The values below come from US20100166769.

The test deals with M-GFP fusion protein (SARS-CoV M protein fused with green fluorescent protein), SARS-CoV.

For the substance SARS-CoV E (envelope) protein, the result was “binds”.
